{
  "source": "patent US20240115717A1",
  "about": "(priority 2020, published 2024)",
  "origin": "cited, not measured here",
  "tested_on": "U251MG, D54MG and U87MG glioma cell lines",
  "details": "read-out: IC50 on invasion and migration; cited from earlier work",
  "data": [
    {"substance": "Chlorotoxin [SEQ ID NO: 1]", "values": [
      {"measurement": "IC50", "result": "~0.6", "unit": "µM"}
    ]}
  ]
}
